Test results reported in patent publication US10674699B2, “Endophyte enhanced seedlings with increased pest tolerance” (priority 2006, dated 2020).
“Also recorded” adds a separate entry of the source.

Experiments:
[1] = Rugulosin analysis of needles by HPLC (toxin in planta); design: species or system Picea glauca; settings: field site, both years
Procedure: Rugulosin of purity>95% was used for standards. The presence of rugulosin was then to be determined in a sub-sample of 113 randomly-selected trees of the 330 trees determined to be endophyte positive by antibody. A 100 mg sample of freeze-dried needles was ground to a fine power as describe above and extracted with 10 mL of ice cold petroleum ether by stirring for 45 min under conditions of low light. The flask was kept on ice during the extracting and was covered with aluminium foil to prevent degradation by light. The suspension was filtered by suction and discarded. The needles were returned to the flask and extracted with 10 mL of chloroform for 45 min as above for petroleum ether. The new suspension was then filtered by suction and retained while the needles were discarded. The chloroform extract was washed with 10 mL of 5% NaHCO3 in a separatory funnel. […]
The dried extracts were re-dissolved in 50 μL of acetonitrile, 10 μL was removed and injected into an 1100 series Agilent Technologies HPLC-DAD, using a Synergi Max RP 80A, 250×4.6 column (Phenomonex) and a gradient method adapted from Frisvad (1987). […] Samples were analysed at 389 nm, the maximum UVNIS absorption for rugulosin and peak identity was confirmed by full spectrum data from the diode array detector. The limit of quantification was 150 ng/g freeze dried powdered material; recoveries from spiked needles averaged 75%. […]

[2] = Vermiculin analysis of needles by HPLC (toxin in planta); design: species or system Picea glauca

| Compound | rugulosin in cast needles collected in netting around trees [1] | vermiculin in ELISA-negative samples ([2]; three months post inoculation) | ELISA-positive seedlings that contained vermiculin ([2]; three months post inoculation with 5WS11I1) [%] |
| --- | --- | --- | --- |
| Cc1cc(O)c2c(c1)C(=O)[C@]13C(=C2O)C(=O)[C@@H]2[C@H](O)[C@H]1[C@@H]1[C@@H](O)[C@H]3C(=O)C3=C(O)c4c(O)cc(C)cc4C(=O)[C@]312 [rugulosin] | no toxin was present; also recorded: No rugulosin was detected | – | – |
| CC(=O)C[C@@H]1CCC(=O)/C=C/C(=O)O[C@H](CC(C)=O)CCC(=O)/C=C/C(=O)O1 [vermiculin] | – | no vermiculin could be detected | 30 |
